Laboratory results: PubChem BioAssay AID1445 (SRMLSC, 2008)
Only a part is listed here, and it is no random draw. Potency and affinity values are given separately. Activity calls are given as the source filed them.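 Rule for the calls: active = primary inhibition above the hit cutoff, then over 50% inhibition at one or more dose response concentrations (cut at about 23% in these data, passing the limit was not always enough); inconclusive = conflicting primary data, or primary hits not chosen for dose response; inactive = low primary inhibition, or under 50% at every dose.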

The chains behind the UniProt entries cited, without tags or fusion partners.
UniProt O96935, whole entry: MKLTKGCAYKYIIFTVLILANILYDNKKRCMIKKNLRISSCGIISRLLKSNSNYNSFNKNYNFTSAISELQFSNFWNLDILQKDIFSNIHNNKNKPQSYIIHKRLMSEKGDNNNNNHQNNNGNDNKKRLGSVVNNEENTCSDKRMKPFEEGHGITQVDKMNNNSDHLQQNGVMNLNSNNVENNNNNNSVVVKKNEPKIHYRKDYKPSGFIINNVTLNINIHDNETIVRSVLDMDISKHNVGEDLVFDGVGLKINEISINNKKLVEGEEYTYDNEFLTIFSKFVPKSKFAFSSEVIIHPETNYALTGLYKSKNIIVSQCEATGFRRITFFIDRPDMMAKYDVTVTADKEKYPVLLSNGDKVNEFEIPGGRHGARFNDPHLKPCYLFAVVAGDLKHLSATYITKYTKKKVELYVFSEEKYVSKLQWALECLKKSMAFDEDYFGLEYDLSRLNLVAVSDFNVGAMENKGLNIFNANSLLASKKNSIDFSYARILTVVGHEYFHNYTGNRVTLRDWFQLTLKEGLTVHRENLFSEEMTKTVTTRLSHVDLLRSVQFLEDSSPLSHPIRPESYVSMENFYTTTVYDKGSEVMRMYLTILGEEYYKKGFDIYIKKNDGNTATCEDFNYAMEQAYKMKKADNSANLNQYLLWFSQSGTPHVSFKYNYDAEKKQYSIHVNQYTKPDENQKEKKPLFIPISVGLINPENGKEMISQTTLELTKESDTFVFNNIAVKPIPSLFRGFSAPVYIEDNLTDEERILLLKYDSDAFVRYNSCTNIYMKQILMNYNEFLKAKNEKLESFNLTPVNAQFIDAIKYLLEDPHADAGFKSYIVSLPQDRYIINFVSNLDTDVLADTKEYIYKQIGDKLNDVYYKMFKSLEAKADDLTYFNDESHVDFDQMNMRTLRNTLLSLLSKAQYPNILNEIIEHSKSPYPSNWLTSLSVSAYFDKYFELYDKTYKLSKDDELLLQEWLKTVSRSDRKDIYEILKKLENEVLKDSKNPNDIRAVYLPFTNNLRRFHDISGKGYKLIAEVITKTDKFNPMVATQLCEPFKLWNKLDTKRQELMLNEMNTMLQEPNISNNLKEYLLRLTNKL

Target: Aminopeptidase N (Plasmodium falciparum (isolate 3D7)) (UniProt O96935)
Assay: P. falciparum M1AAP inhibitors, biochemical, fluorogenic H-Leu-NHMec substrate, 1536-well (AID 1445);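 note: plate controls were DMSO full reaction for no effect and no enzyme background for full effect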
Conditions: recombinant M1AAP, H-Leu-NHMec fluorogenic kinetic assay; at 30 µM; stronger effect = higher value

Compound | inhibition
NC(=O)Nc1ccc([As](=O)(O)O)cc1 | inactive: -1.6%
